Zika virus NS2B-NS3: effect of single substitutions on growth in cell culture

Values reported by Ni et al. 2025 (doi:10.1038/s41467-025-63602-z).

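Pools of virus carrying all single amino acid changes were selected for growth in Huh-7.5 cells. The effect is the change in frequency of a mutant, normalised to wild type, as a mean of three replicate libraries (two for positions 207-308).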

Chain scanned (Zika virus MR766; NS2B from position 2 to 131, then the start of NS3):
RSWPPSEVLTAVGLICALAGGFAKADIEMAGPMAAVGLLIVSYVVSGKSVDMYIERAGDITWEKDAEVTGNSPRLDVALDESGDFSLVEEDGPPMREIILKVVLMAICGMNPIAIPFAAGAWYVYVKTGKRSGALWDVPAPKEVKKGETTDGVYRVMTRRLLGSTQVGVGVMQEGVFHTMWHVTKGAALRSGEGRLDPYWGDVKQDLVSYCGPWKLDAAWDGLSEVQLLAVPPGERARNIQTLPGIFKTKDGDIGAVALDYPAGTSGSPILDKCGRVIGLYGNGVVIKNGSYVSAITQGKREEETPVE

Values are log2 effects on growth: 0 is wild type, lower means poorer growth. Substitutions are written as wild-type residue, site number, new residue. All changes here are to leucine. Six mutants with high scores were retested singly and none clearly outgrew wild type, so positive values are not proof of better growth. Position 1 still belongs to NS2A. In the paper, -1 or higher counts as tolerated. Positions 1-103, 104-206 and 207-308 were made and measured as separate libraries.

G264L: -6.82.
T265L: -5.43.
S266L: -4.44.
G267L: -7.00.
S268L: -6.31.
P269L: -5.86.
I270L: -3.99.
D272L: -4.59.
K273L: -2.63.
C274L: 0.91.
G275L: -5.59.
R276L: -3.16.
V277L: -6.48.
I278L: -0.55.
G279L: -6.21.
Y281L: -6.51.
G282L: -5.77.
N283L: -6.46.
G284L: -6.29.
V285L: -6.43.
V286L: -7.30.
I287L: -0.38.
K288L: -6.44.
N289L: -6.66.
G290L: -6.92.
S291L: -5.66.
Y292L: -6.14.
V293L: -6.63.
S294L: -6.10.
A295L: -6.09.
I296L: -5.67.
T297L: -5.53.
Q298L: -6.94.
G299L: -6.36.
K300L: -4.44.
R301L: -4.04.
E302L: 0.17.
E303L: -0.99.
E304L: 0.13.
T305L: 0.32.
P306L: -1.40.
V307L: -1.24.
E308L: -0.12.

Extract of 5 entries:

For T265L the result was -5.43.
For G275L the result was -5.59.
For S291L the result was -5.66.
For V307L the result was -1.24.
For A295L the result was -6.09.